Results reported in patent US9724383B2, “Stabilized trimeric HIV-1 GP41 fusion inhibitor polypeptides comprising the N-terminal heptad repeat (NHR) and foldon (FD) trimerization motif” (New York Blood Center, Inc., priority 2009, dated 2017).

Target: CHR-peptide C34 (Human immunodeficiency virus type 1 group M subtype B, UniProt P04578)
Format: binding, HIV-1
Details: thermal denaturation monitored at 222 nm, 20-98° C.
Protocol: All the N-peptides were diluted in ddH2O (pH 7.0) and all the C-peptides or the mixture of the N- and C-peptides were diluted in 50 mM sodium phosphate and 150 mM NaCl (PBS, pH 7.2) to a final concentration of 10 μM. The individual peptides and their mixtures were incubated in a 37° C. water bath for 0.5 h before testing. […] The α-helicity was calculated from the CD signal by dividing the mean residue ellipticity at 222 nm by the value expected for 100% helix formation (i.e., 33,000° cm^2 dmol^−1) according to previous studies. Thermal denaturation of the samples was monitored at 222 nm by applying a temperature gradient from 20° C. to 98° C. with a 2-degree interval, an equilibration time of 1.5 min, and an averaging time of 60 s. The midpoint of the thermal unfolding transition (Tm) values was calculated using Jasco software utilities as described previously.

“IEAQQHLLQLTVWGIKQLQARILAVERYGYIPEAPRDGQAYVRKDGEWVLLSTFL [N28Fd]” was tested, and the “Tm value of complex with C34” value was 62.2 °C.
